Anti-infective test results gathered from many reports (values: NIAID ChemDB through PubChem).

Shared fields: whole-cell or culture tests; species: Aspergillus niger; read-out: MIC50

MIC50, MIC90 and the like: level of inhibition, or share of isolates inhibited.

C=CCSS(=O)CC=C ; strain: ATCC 16888 ; read by: broth dilution ; value: 125 µg/mL
Cc1nc(NC(=O)c2ccc(F)cc2)sc1C(=O)N/N=C1/S/C(=C/c2ccc([N+](=O)[O-])cc2)C(=O)N1c1ccccc1 ; strain: MTCC 282 ; value: 500 µg/mL
COc1ccc(C=O)cc1OCC(O)(Cn1cncn1)c1ccc(F)cc1F ; strain: ATCC 16404 ; read by: broth dilution ; value: 128 µg/mL
CCC(C)n1ncn(-c2ccc(N3CCN(c4ccc(OC[C@H]5CO[C@](Cn6cncn6)(c6ccc(Cl)cc6Cl)O5)cc4)CC3)cc2)c1=O ; read by: broth dilution ; value: 2 µg/mL
COc1cccc(/C=C2/S/C(=N/NC(=O)c3sc(NC(=O)c4ccc(F)cc4)nc3C)N(c3ccccc3)C2=O)c1 ; strain: MTCC 282 ; value: 250 µg/mL
COc1cc(/C=C2\SC(=S)NC2=O)cc(OC)c1OCC(O)(Cn1cncn1)c1ccc(F)cc1F ; strain: ATCC 16404 ; read by: broth dilution ; value: 16 µg/mL
Nc1ncccc1-c1cc(Cc2ccc(COc3ccccn3)cc2)no1 ; read by: broth dilution ; value: 0.03 µg/mL
COc1ccc(/C=C2/S/C(=N/NC(=O)c3sc(NC(=O)c4ccc(F)cc4)nc3C)N(c3ccccc3)C2=O)cc1 ; strain: MTCC 282 ; value: 100 µg/mL
C/C=C/CN=C(N)NCCCCCCCN1CCCCCCCCN=C(N)NC1=O ; value: 18 µM
CC1=C(Cl)C(O)=CC(=O)C12Oc1cc(O)c(Cl)c(C)c1C2=O ; strain: MTCC 282 ; value: 100 µg/mL
COc1cc(C2=C(c3ccc(F)cc3F)COC2=O)ccc1OCC(O)(Cn1cncn1)c1ccc(F)cc1F ; strain: ATCC 16404 ; read by: broth dilution ; value: 8 µg/mL
Cc1cccc(/C=C2/S/C(=N/NC(=O)c3sc(NC(=O)c4ccc(F)cc4)nc3C)N(c3ccccc3)C2=O)c1 ; strain: MTCC 282 ; value: 100 µg/mL
COc1cc(/C=C2\SC(=S)NC2=O)ccc1OCC(O)(Cn1cncn1)c1ccc(F)cc1F ; strain: ATCC 16404 ; read by: broth dilution ; value: 16 µg/mL
C[C@@H]1C/C=C/C=C/C=C/C=C/[C@H](OC2O[C@H](C)[C@@H](O)[C@H](N)[C@@H]2O)CC2O[C@](O)(C[C@@H](O)C[C@H]3O[C@@H]3/C=C/C(=O)O1)C[C@H](O)[C@H]2C(=O)O ; strain: Species complex ; value: 32 µg/mL
O=C(O)Cc1ccc(OCC(O)(Cn2cncn2)c2ccc(F)cc2F)cc1 ; strain: ATCC 16404 ; read by: broth dilution ; value: 128 µg/mL
C/C=C/[C@@H]1OC(=O)C=C[C@@H]1O ; value: <1 µg/mL
COc1cc(C2=C(c3ccc(F)cc3)COC2=O)ccc1OCC(O)(Cn1cncn1)c1ccc(F)cc1F ; strain: ATCC 16404 ; read by: broth dilution ; value: 8 µg/mL
Cc1nc(NC(=O)c2ccc(F)cc2)sc1C(=O)N/N=C1/S/C(=C/c2ccccc2Cl)C(=O)N1c1ccccc1 ; strain: MTCC 282 ; value: 250 µg/mL

The last 2 rows once more:

smiles | strain | read by | value
COc1cc(C2=C(c3ccc(F)cc3)COC2=O)ccc1OCC(O)(Cn1cncn1)c1ccc(F)cc1F | ATCC 16404 | broth dilution | 8 µg/mL
Cc1nc(NC(=O)c2ccc(F)cc2)sc1C(=O)N/N=C1/S/C(=C/c2ccccc2Cl)C(=O)N1c1ccccc1 | MTCC 282 | - | 250 µg/mL

Conditions beyond the fields shown may differ between rows. An empty or dashed field is not shown.